Measured values from several laboratories, pooled; numbers as filed in NIAID ChemDB.

Shared fields: cytotoxicity tests; cell line: MT-4; read by: luminescence; measure: CC50

CCn: concentration that lowers growth or viability of the cells by n%.

smiles,value
C[C@H](c1ccccc1)N1O[C@@]2(CC[C@H](C)N3C[C@H]2n2cc(C(=O)NCc4c(F)cc(F)cc4F)c(=O)c(O)c2C3=O)CC1=O,49.4 µM
O=C(NCc1ccc(F)c(Cl)c1F)c1cn2c(c(O)c1=O)C(=O)N1CCC[C@]13COCC[C@H]23,9.06 µM
O=C(NCCCCN1CCCC2=C[C@@H]3C[C@@H](CN4CCCC[C@H]34)[C@@H]21)c1c(F)cc(Br)cc1F,>20 µM
CCCCCCCCCCCCCCCCCCOC(=O)OCOc1c2n(cc(C(=O)NCc3ccc(F)cc3F)c1=O)[C@@H]1CN(C2=O)[C@@H](C)CC[C@]12CC(OC)=NO2,50 µM
O=C(Cc1ccc2c(c1)OC(F)(F)O2)NCCCCN1CCCC2=C[C@@H]3C[C@@H](CN4CCCC[C@H]34)[C@@H]21,>20 µM
CC1(C)CC=C(c2cn(-c3nccc(C(=O)NC4CCC(N5CC6CCC(C5)O6)CC4)n3)c3ccc(F)c([C@H](OC(C)(C)C)C(=O)O)c23)CC1,5.158 µM
CC1=NCC2(CC[C@H](C)N3C[C@H]2n2cc(C(=O)NCc4ccc(F)cc4F)c(=O)c(O)c2C3=O)O1,50 µM
COc1cc(/C=C/C(=O)OCCCc2ccc(OC(COC(=O)/C=C/c3ccc(O)c(OC)c3)[C@@H](OC)c3ccc(O)c(OC)c3)c(OC)c2)ccc1O,>10 µM
O=C(NCc1c(F)cc(F)cc1F)c1cn2c(c(O)c1=O)C(=O)N[C@H]1CCCC[C@H]12,10.3 µM
O=C(NCCCCCCN1CCC[C@H]2C[C@@H]3C[C@@H](CN4CCCC[C@H]34)[C@@H]21)c1c(F)cc(Br)cc1F,>20 µM
CCCCCCCCCCCCCCCCCCOC(=O)Oc1c2n(cc(C(=O)NCc3ccc(F)cc3F)c1=O)[C@@H]1CN(C2=O)[C@@H](C)CC[C@]12CC(OC)=NO2,50 µM
CC1=NO[C@]2(CC[C@H](C)N3C[C@H]2n2cc(C(=O)NCc4c(F)cc(F)cc4F)c(=O)c(O)c2C3=O)C1,50 µM
COC[C@@H](C)OC(=O)OCOc1c2n(cc(C(=O)NCc3ccc(F)cc3F)c1=O)[C@@H]1CN(C2=O)[C@@H](C)CC[C@]12CC(OC)=NO2,50 µM
CC1C2CC2C(C)N2CN1C(=O)c1c(O)c(=O)c(C(=O)NCc3c(F)cc(F)cc3F)cn12,34.3 µM
CC1=NO[C@]2(CC[C@H](C)N3C[C@H]2n2cc(C(=O)NCc4ccc(F)cc4F)c(=O)c(O)c2C3=O)C1O,50 µM
C[C@H]1CN2C(=O)c3c(O)c(=O)c(C(=O)NCc4ccc(F)c(Cl)c4F)cn3[C@@H]3CCC[C@@]32O1,3.9 µM
CC(=O)O[C@H]1[C@@H](OC(C)=O)[C@@]2(C)C3CCC4C(C)(C)[C@@H](OC(=O)CC(C)(C)C(=O)OCc5ccccc5)CC[C@@]45C[C@@]35CC[C@@]23CO[C@@]2(C(C)(C)O)CC[C@](C)(O2)[C@@H]13,22.1 µM
C[C@@H]1CO[C@@]23CCCC[C@@H]2n2cc(C(=O)NCc4ccc(F)cc4F)c(=O)c(O)c2C(=O)N13,7.27 µM
O=C(NCCN1CCCC2=C[C@@H]3C[C@@H](CN4CCCC[C@H]34)[C@@H]21)c1ccc(OC(F)(F)F)cc1,>25 µM
CC(C)(CC(=O)O[C@H]1CC[C@]23C[C@]24CC[C@]25CO[C@@]6(C(C)(C)O)CC[C@](C)(O6)[C@H]2[C@@H](O)[C@@H](O)[C@@]5(C)C4CCC3C1(C)C)C(=O)OCc1ccccc1,13.2 µM
COc1cc2c(cc1Cc1cccc(Cl)c1F)c(=O)c(C(=O)O)cn2[C@H](CO)C(C)C,4.409 µM
CCCCCCCCOC(=O)OCOc1c2n(cc(C(=O)NCc3ccc(F)cc3F)c1=O)[C@@H]1CN(C2=O)[C@@H](C)CC[C@]12CC(OC)=NO2,50 µM
O=C(NCCCCCCN1CCCC2=C[C@@H]3C[C@@H](CN4CCCC[C@H]34)[C@@H]21)c1c(F)cc(Br)cc1F,>20 µM
C[C@H]1CC[C@]2(CC(=O)N(Cc3nc4ccccc4s3)O2)[C@H]2CN1C(=O)c1c(O)c(=O)c(C(=O)NCc3c(F)cc(F)cc3F)cn12,50 µM
C[C@@H]1C=CC(C)(C)N2CN1n1cc(C(=O)NCc3ccc(F)cc3F)c(=O)c(O)c1C2=O,37.2 µM

Lines come from different laboratories, so protocols vary.